Measurements reported in patent US20140271917A1, “CONTROLLED AND PREDICTABLE 2-PATH-WAY DECOMPOSITION OF THERMODYNAMICALLY DOUBLE UNSTABLE OXIDISING AGENTS” (F_OXYDE GMBH, priority 2013, published 2014).

Experiment: immersion testing of a dried protein/carbohydrate sample (flexural modulus, swelling)
Conditions: 60 min exposure time, ambient temperature

[Na+].[OH-] [NaOH]
flexural modulus, reference substance NaOH at equivalent pH (pH equivalent to Example 1): 0.04
swelling in percent of dry material, reference substance NaOH at equivalent pH (pH equivalent to Example 1): 18%
flexural modulus, reference substance NaOH at equivalent pH (pH equivalent to Example 2): 0.06
swelling in percent of dry material, reference substance NaOH at equivalent pH (pH equivalent to Example 2): 21%
flexural modulus, reference substance NaOH at equivalent pH (pH equivalent to Example 3): 0.1
swelling in percent of dry material, reference substance NaOH at equivalent pH (pH equivalent to Example 3): 25%
